Measured values published in PubChem BioAssay AID651820 (National Center for Advancing Translational Sciences (NCATS), 2012).
Only a part is listed here, and it is no random draw. Records with an inconclusive call do not appear. Where a call stands in place of a potency, no number is given. The source made the active and inactive calls. The call rests on the fitted dose curve; in most records, active means well fitted inhibition curve with a large enough effect; inconclusive means small, poorly fitted or top-dose-only effect, or another doubt; inactive means no such curve, though single readings can be large or run the other way.

Test: qHTS Assay for Inhibitors of Hepatitis C Virus (HCV)
Details: Huh7.5.1 HCVcc-Cre (HCVcc is cell-culture hepatitis C virus) infection, luciferase reporter, 44 h; series mostly up to 41.8 µM
Source text: Hepatitis C virus (HCV) infects about 200 million people in the world. Many infected people progress to chronic liver disease including cirrhosis with a risk of developing liver cancer. To date, there is no effective vaccine for hepatitis C. Current therapy based on interferon is only effective in about half of the patients and is associated with significant adverse effects. The fraction of people with HCV who can complete a successful treatment is estimated to be no more than 10 percent. Recent development of direct-acting antivirals against HCV, such as protease and polymerase inhibitors, is promising but still requires combination with peginterferon and ribavirin for maximal efficacy. In addition, these agents are associated with high rate of resistance and many have significant side effects. Due to the lack of a culture system for infectious HCV, the search for new HCV drugs has been greatly hampered. […] High-throughput screening (HTS) with an infectious HCV system would cover the complete spectrum of potentially druggable targets in all stages of HCV lifecycle, and would have more biological relevance than other cell-based assays. Moreover, targeting several key processes in the viral life cycle may not only increase antiviral efficacy; more importantly, it may also reduce the capacity of the virus to develop resistance to the compound. The goal of this project is to identify novel HCV inhibitors as new therapies for hepatitis C, using a highly sensitive and specific assay platform which is based on a HCV infectious cell culture system established in the laboratory and adapted for high-throughput HCV drug screen. NIH Chemical Genomics Center [NCGC] NIH Molecular Libraries Probe Centers Network [MLPCN] MLPCN Grant: MH095511 Assay Submitter (PI): Jake Liang, NIDDK
The assay will start with plating 1,000 cells/well in 3 µL volume and culture for 4 h. Then 23 nL of compounds from the library collection will be added to each well, followed by adding 2.5 µL of HCVcc-Cre virus (~ 0.5 moi) and further cultured for 44 h before the luciferase assay. A volume of 4.5 µL luciferase substrates will be added to each well and the plates will be incubated at room temperature for 15 min. and then read for 15 sec. for the luciferase activity

| SMILES | Potency |
| --- | --- |
| CC(=O)NC(SC(=S)N(CC(C)C)CC(C)C)C(Cl)(Cl)Cl (stereo unspecified) | inactive |
| O=C(OC1CN2CCC1CC2)c1ccccc1 (stereo unspecified) | inactive |
| CCC(=O)N1C2C3N(C(=O)CC)C1C1N(C(=O)CC)C(C(N1C(=O)CC)N3C(=O)CC)N2C(=O)CC | inactive |
| CC(NC(=O)COC(=O)C(O)(c1ccccc1)c1ccccc1)c1ccccc1 (stereo unspecified) | inactive |
| CN(C)C(=O)Oc1noc2ccccc12 | inactive |
| CCNC(=S)/N=C(\N)N[N+](=O)[O-] | inactive |
| O=C(NC1CCS(=O)(=O)C1)NP(=S)(Oc1ccccc1)Oc1ccccc1 (stereo unspecified) | inactive |
| c1ccc(-c2nn[nH]n2)c(-c2nn[nH]n2)c1 | inactive |
| Cc1ccc(NP(=O)(Oc2cccc(C)c2)Oc2cccc(C)c2)nc1 | inactive |
| O=P1(N(CCCl)CCCl)OCCC2CCCCN21 (stereo unspecified) | inactive |
| CC(=O)c1ccc(N2CC2c2ccncc2)cc1 (stereo unspecified) | inactive |
| COC(=O)C1(C)COP(=O)(NCc2ccccc2)OC1 (stereo unspecified) | inactive |
| Cc1ccccc1CN(C)C(=O)COC(=O)C(O)(c1ccccc1)c1ccccc1 | inactive |
| C[C@H]1OP(=O)(Oc2ccccc2)C[C@@H]2O[C@@H]21 (stereo partly specified) | inactive |
| C[C@@H]1C=CCP(=O)(Oc2ccccc2)O1 (stereo partly specified) | inactive |
| CC(=O)Nc1ccc([As](=O)(O)O)c(O)c1 | inactive |
| CC(=O)Nc1ccc(Oc2c([N+](=O)[O-])cc([N+](=O)[O-])cc2[N+](=O)[O-])cc1 | inactive |
| O=P1(Nc2nc3ccc(Cl)cc3s2)COc2ccccc2O1 (stereo unspecified) | inactive |
| CCOc1ccc(C2=NCC(CBr)S2)cc1 (stereo unspecified) | inactive |
| CCc1cc(O)c([N+](=O)[O-])c(C)c1[N+](=O)[O-] | inactive |
| CC(C)(C)C(=O)NC(Sc1ccccc1)C(Cl)(Cl)Cl (stereo unspecified) | inactive |
